Test results as given in US9625458B2, “Biosensor” (priority 2002, dated 2017).

Test: Fluorescence emission spectra without and with saturating ligand (wavelength shift, ΔIstd, ΔRmax)
Details: for λmax,apo (nm): absence of ligand; for ΔIstd: standard intensity change; for ΔIstd / ΔRmax: unbound vs ligand-saturated; for ΔRmax: standard ratiometric change
Method in brief: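 Emission spectra of bPBP–fluorophore conjugates (50–1000 nM protein, 25 °C, stirred) recorded without and with saturating ligand, using fluorophore-specific excitation. Wavelength shift, ΔIstd (intensity change at the mid-point wavelength) and ΔRmax (maximal ratiometric change over enumerated band pairs, 2 nm steps, 10 nm width) derived.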

[1] = wavelength of emission maximum, saturating ligand
[2] = emission maximum, saturating ligand (ligand column)

Row | Molecule | λmax,apo (nm) (wavelength of emission maximum) | λmax,sat (nm) [1] | λmax,apo (nm) (emission maximum) | λmax,sat (nm) [2] | ΔIstd | ΔRmax
1 | phosphate BP A225C NBD (conjugate, UniProt P0AG82 26-346, looked up, variant A225C, NBD conjugate) Phosphate-binding protein PstS: EASLTGAGATFPAPVYAKWADTYQKETGNKVNYQGIGSSGGVKQIIANTVDFGASDAPLSDEKLAQEGLFQFPTVIGGVVLAVNIPGLKSGELVLDGKTLGDIYLGKIKKWDDEAIAKLNPGLKLPSQNIAVVRRADGSGTSFVFTSYLAKVNEEWKNNVGTGSTVKWPIGLGGKGNDGIAAFVQRLPGAIGYVEYAYAKQNNLAYTKLISADGKPVSPTEENFCNAAKGADWSKTFAQDLTNQKGEDAWPITSTTFILIHKDQKKPEQGTEVLKFFDWAYKTGAKQANDLDYASLPDSVVEQVRAAWKTNIKDSSGKPLY | 544 | 554 | – | – | – | –
2 | phosphate BP N223C Fluorescein (conjugate, UniProt P0AG82 26-346, looked up, variant N223C, fluorescein conjugate) Phosphate-binding protein PstS: EASLTGAGATFPAPVYAKWADTYQKETGNKVNYQGIGSSGGVKQIIANTVDFGASDAPLSDEKLAQEGLFQFPTVIGGVVLAVNIPGLKSGELVLDGKTLGDIYLGKIKKWDDEAIAKLNPGLKLPSQNIAVVRRADGSGTSFVFTSYLAKVNEEWKNNVGTGSTVKWPIGLGGKGNDGIAAFVQRLPGAIGYVEYAYAKQNNLAYTKLISADGKPVSPTEECFANAAKGADWSKTFAQDLTNQKGEDAWPITSTTFILIHKDQKKPEQGTEVLKFFDWAYKTGAKQANDLDYASLPDSVVEQVRAAWKTNIKDSSGKPLY | 519 | 519 | – | – | – | –
3 | phosphate BP N226C JPW4039 (conjugate, UniProt P0AG82 26-346, looked up, variant N226C, JPW4039 dye conjugate) Phosphate-binding protein PstS: EASLTGAGATFPAPVYAKWADTYQKETGNKVNYQGIGSSGGVKQIIANTVDFGASDAPLSDEKLAQEGLFQFPTVIGGVVLAVNIPGLKSGELVLDGKTLGDIYLGKIKKWDDEAIAKLNPGLKLPSQNIAVVRRADGSGTSFVFTSYLAKVNEEWKNNVGTGSTVKWPIGLGGKGNDGIAAFVQRLPGAIGYVEYAYAKQNNLAYTKLISADGKPVSPTEENFACAAKGADWSKTFAQDLTNQKGEDAWPITSTTFILIHKDQKKPEQGTEVLKFFDWAYKTGAKQANDLDYASLPDSVVEQVRAAWKTNIKDSSGKPLY | 595 | 571 | – | – | – | –
4 | phosphate BP N226C JPW4042 (conjugate, UniProt P0AG82 26-346, looked up, variant N226C, JPW4042 dye conjugate) Phosphate-binding protein PstS: EASLTGAGATFPAPVYAKWADTYQKETGNKVNYQGIGSSGGVKQIIANTVDFGASDAPLSDEKLAQEGLFQFPTVIGGVVLAVNIPGLKSGELVLDGKTLGDIYLGKIKKWDDEAIAKLNPGLKLPSQNIAVVRRADGSGTSFVFTSYLAKVNEEWKNNVGTGSTVKWPIGLGGKGNDGIAAFVQRLPGAIGYVEYAYAKQNNLAYTKLISADGKPVSPTEENFACAAKGADWSKTFAQDLTNQKGEDAWPITSTTFILIHKDQKKPEQGTEVLKFFDWAYKTGAKQANDLDYASLPDSVVEQVRAAWKTNIKDSSGKPLY | 673 | 651 | – | – | – | –
5 | phosphate BP N226C JPW4045 (conjugate, UniProt P0AG82 26-346, looked up, variant N226C, JPW4045 dye conjugate) Phosphate-binding protein PstS: EASLTGAGATFPAPVYAKWADTYQKETGNKVNYQGIGSSGGVKQIIANTVDFGASDAPLSDEKLAQEGLFQFPTVIGGVVLAVNIPGLKSGELVLDGKTLGDIYLGKIKKWDDEAIAKLNPGLKLPSQNIAVVRRADGSGTSFVFTSYLAKVNEEWKNNVGTGSTVKWPIGLGGKGNDGIAAFVQRLPGAIGYVEYAYAKQNNLAYTKLISADGKPVSPTEENFACAAKGADWSKTFAQDLTNQKGEDAWPITSTTFILIHKDQKKPEQGTEVLKFFDWAYKTGAKQANDLDYASLPDSVVEQVRAAWKTNIKDSSGKPLY | 675 | 638 | – | – | – | –
6 | arabinose BP L298C Acrylodan (conjugate, UniProt P02924 24-329, looked up, variant L298C, acrylodan label) L-arabinose-binding …: ENLKLGFLVKQPEEPWFQTEWKFADKAGKDLGFEVIKIAVPDGEKTLNAIDSLAASGAKGFVICTPDPKLGSAIVAKARGYDMKVIAVDDQFVNAKGKPMDTVPLVMMAATKIGERQGQELYKEMQKRGWDVKESAVMAITANELDTARRRTTGSMDALKAAGFPEKQIYQVPTKSNDIPGAFDAANSMLVQHPEVKHWLIVGMNDSTVLGGVRATEGQGFKAADIIGIGINGVDAVSELSKAQATGFYGSLLPSPDVHGYKSSEMLYNWVAKDVEPPKFTEVTDVVLITRDNFKEECEKKGLGGK | – | – | 499 | 500 | 0.07 | 1.77
7 | phosphate BP S39C JPW4039 (conjugate, UniProt P0AG82 26-346, looked up, variant S39C, JPW4039 dye conjugate) Phosphate-binding protein PstS: EASLTGAGATFPAPVYAKWADTYQKETGNKVNYQGIGSCGGVKQIIANTVDFGASDAPLSDEKLAQEGLFQFPTVIGGVVLAVNIPGLKSGELVLDGKTLGDIYLGKIKKWDDEAIAKLNPGLKLPSQNIAVVRRADGSGTSFVFTSYLAKVNEEWKNNVGTGSTVKWPIGLGGKGNDGIAAFVQRLPGAIGYVEYAYAKQNNLAYTKLISADGKPVSPTEENFANAAKGADWSKTFAQDLTNQKGEDAWPITSTTFILIHKDQKKPEQGTEVLKFFDWAYKTGAKQANDLDYASLPDSVVEQVRAAWKTNIKDSSGKPLY | 597 | 551 | – | – | – | –
8 | phosphate BP S39C JPW4042 (conjugate, UniProt P0AG82 26-346, looked up, variant S39C, JPW4042 dye label) Phosphate-binding protein PstS: EASLTGAGATFPAPVYAKWADTYQKETGNKVNYQGIGSCGGVKQIIANTVDFGASDAPLSDEKLAQEGLFQFPTVIGGVVLAVNIPGLKSGELVLDGKTLGDIYLGKIKKWDDEAIAKLNPGLKLPSQNIAVVRRADGSGTSFVFTSYLAKVNEEWKNNVGTGSTVKWPIGLGGKGNDGIAAFVQRLPGAIGYVEYAYAKQNNLAYTKLISADGKPVSPTEENFANAAKGADWSKTFAQDLTNQKGEDAWPITSTTFILIHKDQKKPEQGTEVLKFFDWAYKTGAKQANDLDYASLPDSVVEQVRAAWKTNIKDSSGKPLY | 623 | 622 | – | – | – | –
9 | phosphate BP S39C JPW4045 (conjugate, UniProt P0AG82 26-346, looked up, variant S39C, JPW4045 dye conjugate) Phosphate-binding protein PstS: EASLTGAGATFPAPVYAKWADTYQKETGNKVNYQGIGSCGGVKQIIANTVDFGASDAPLSDEKLAQEGLFQFPTVIGGVVLAVNIPGLKSGELVLDGKTLGDIYLGKIKKWDDEAIAKLNPGLKLPSQNIAVVRRADGSGTSFVFTSYLAKVNEEWKNNVGTGSTVKWPIGLGGKGNDGIAAFVQRLPGAIGYVEYAYAKQNNLAYTKLISADGKPVSPTEENFANAAKGADWSKTFAQDLTNQKGEDAWPITSTTFILIHKDQKKPEQGTEVLKFFDWAYKTGAKQANDLDYASLPDSVVEQVRAAWKTNIKDSSGKPLY | 671 | 647 | – | – | – | –
10 | phosphate BP S39C Acrylodan (conjugate, UniProt P0AG82 26-346, looked up, variant S39C, acrylodan conjugate) Phosphate-binding protein PstS: EASLTGAGATFPAPVYAKWADTYQKETGNKVNYQGIGSCGGVKQIIANTVDFGASDAPLSDEKLAQEGLFQFPTVIGGVVLAVNIPGLKSGELVLDGKTLGDIYLGKIKKWDDEAIAKLNPGLKLPSQNIAVVRRADGSGTSFVFTSYLAKVNEEWKNNVGTGSTVKWPIGLGGKGNDGIAAFVQRLPGAIGYVEYAYAKQNNLAYTKLISADGKPVSPTEENFANAAKGADWSKTFAQDLTNQKGEDAWPITSTTFILIHKDQKKPEQGTEVLKFFDWAYKTGAKQANDLDYASLPDSVVEQVRAAWKTNIKDSSGKPLY | 520 | 520 | – | – | – | –
11 | phosphate BP S39C Fluorescein (conjugate, UniProt P0AG82 26-346, looked up, variant S39C, fluorescein conjugate) Phosphate-binding protein PstS: EASLTGAGATFPAPVYAKWADTYQKETGNKVNYQGIGSCGGVKQIIANTVDFGASDAPLSDEKLAQEGLFQFPTVIGGVVLAVNIPGLKSGELVLDGKTLGDIYLGKIKKWDDEAIAKLNPGLKLPSQNIAVVRRADGSGTSFVFTSYLAKVNEEWKNNVGTGSTVKWPIGLGGKGNDGIAAFVQRLPGAIGYVEYAYAKQNNLAYTKLISADGKPVSPTEENFANAAKGADWSKTFAQDLTNQKGEDAWPITSTTFILIHKDQKKPEQGTEVLKFFDWAYKTGAKQANDLDYASLPDSVVEQVRAAWKTNIKDSSGKPLY | 519 | 518 | – | – | – | –
12 | phosphate BP S39C NBD (conjugate, UniProt P0AG82 26-346, looked up, variant S39C, NBD dye conjugate) Phosphate-binding protein PstS: EASLTGAGATFPAPVYAKWADTYQKETGNKVNYQGIGSCGGVKQIIANTVDFGASDAPLSDEKLAQEGLFQFPTVIGGVVLAVNIPGLKSGELVLDGKTLGDIYLGKIKKWDDEAIAKLNPGLKLPSQNIAVVRRADGSGTSFVFTSYLAKVNEEWKNNVGTGSTVKWPIGLGGKGNDGIAAFVQRLPGAIGYVEYAYAKQNNLAYTKLISADGKPVSPTEENFANAAKGADWSKTFAQDLTNQKGEDAWPITSTTFILIHKDQKKPEQGTEVLKFFDWAYKTGAKQANDLDYASLPDSVVEQVRAAWKTNIKDSSGKPLY | 558 | 559 | – | – | – | –
13 | arabinose BP L298C NBD (conjugate, UniProt P02924 24-329, looked up, variant L298C, NBD label) L-arabinose-binding …: ENLKLGFLVKQPEEPWFQTEWKFADKAGKDLGFEVIKIAVPDGEKTLNAIDSLAASGAKGFVICTPDPKLGSAIVAKARGYDMKVIAVDDQFVNAKGKPMDTVPLVMMAATKIGERQGQELYKEMQKRGWDVKESAVMAITANELDTARRRTTGSMDALKAAGFPEKQIYQVPTKSNDIPGAFDAANSMLVQHPEVKHWLIVGMNDSTVLGGVRATEGQGFKAADIIGIGINGVDAVSELSKAQATGFYGSLLPSPDVHGYKSSEMLYNWVAKDVEPPKFTEVTDVVLITRDNFKEECEKKGLGGK | – | – | 543 | 539 | 0.45 | 0.41
